Laboratory results from publication PMC4132019, “Comparative Analysis of Seven Viral Nuclear Export Signals (NESs) Reveals the Crucial Role of Nuclear Export Mediated by the Third NES Consensus Sequence of Nucleoprotein (NP) in Influenza A Virus Replication” (2014).

biological target: CRM1-HA (chromosome region maintenance 1) (human (HeLa cell cDNA)) (UniProt O14980); assay: pull-down

| Substance | CRM1 binding (%WT) |
| --- | --- |
| NP-NES3 Φ1 mutant NP-FLAG (L256A) (from UniProt P15682 1-498) (natural protein) | 110 % of WT |
| NP-NES3 Φ2 mutant NP-FLAG (L259A) (from UniProt P15682 1-498) (natural protein) | 48.2 % of WT |
| NP-NES3 Φ3 mutant NP-FLAG (L264A) (from UniProt P15682 1-498) (natural protein) | 39.5 % of WT |
| NP-NES3 Φ4 mutant NP-FLAG (L266A) (from UniProt P15682 1-498) (natural protein) | 45 % of WT |
